Measured values from several laboratories, pooled; numbers as filed in NIAID ChemDB.

Shared fields: whole-cell or culture tests; species: Candida kefyr

Two numbers with a dash give a range or band. A number after MIC or MFC names an inhibition level or a share of isolates. Blank or dashed fields: not listed here. Neighbouring rows are from separate reports.

SMILES,strain or isolate,read-out,read by,result
OC(CCn1ccnc1)c1cccc(C(O)c2ccc(Cl)cc2)c1,RTCC 1074,MIC,broth dilution,>64 µg/mL
O=c1[nH]nc(-c2ccccc2)n1CCCCCCn1c(-c2ccccc2)n[nH]c1=O,,MIC,,7.5 µg/mL
CCC(C)CC(C)CCCCCCCCC(=O)N[C@H]1C[C@@H](O)[C@H](NCCN)NC(=O)[C@@H]2[C@@H](O)CCN2C(=O)[C@H]([C@H](O)CCN)NC(=O)[C@H]([C@H](O)[C@@H](O)c2ccc(O)cc2)NC(=O)[C@@H]2C[C@@H](O)CN2C(=O)[C@H]([C@@H](C)O)NC1=O,,MIC50,,0.008–0.12 µg/mL
Cc1ccc(C(O)c2cccc(C(=O)CCn3ccnc3)c2)cc1,RTCC 1074,MIC,broth dilution,>64 µg/mL
CCCCN(Cc1cn(Cc2ccc(Br)cc2)nn1)CC(O)(Cn1cncn1)c1ccc(F)cc1F,,MIC80,,>64 µg/mL
CCOc1ccc2nc3cc(N=C4NC(=O)/C(=C\C=C\c5ccc([N+](=O)[O-])o5)S4)ccc3c(N)c2c1,ATCC 8614,MIC,broth dilution,666 µg/mL
O=C(CCn1ccnc1)c1cccc(O)c1,RTCC 1019,MIC,broth dilution,>64 µg/mL
CCCCN(Cc1cn(Cc2ccccc2F)nn1)CC(O)(Cn1cncn1)c1ccc(F)cc1F,,MIC80,,1 µg/mL
OC(CCn1ccnc1)c1ccc(-c2ccccc2)cc1,RTCC 1074,MIC,broth dilution,32 µg/mL
CCCCN(Cc1cn(Cc2cccc(F)c2)nn1)CC(O)(Cn1cncn1)c1ccc(F)cc1F,,MIC80,,0.0156 µg/mL
CCCCCOc1ccc(-c2ccc(-c3ccc(C(=O)N[C@H]4C[C@@H](O)[C@@H](O)NC(=O)[C@@H]5[C@@H](O)[C@@H](C)CN5C(=O)[C@H]([C@H](C)O)NC(=O)[C@H]([C@H](O)[C@@H](O)c5ccc(O)cc5)NC(=O)[C@@H]5C[C@@H](O)CN5C(=O)[C@H]([C@H](C)O)NC4=O)cc3)cc2)cc1,,MIC50,,0.015–0.5 µg/mL
CCCCN(Cc1cn(Cc2cccc([N+](=O)[O-])c2)nn1)CC(O)(Cn1cncn1)c1ccc(F)cc1F,,MIC80,,0.0625 µg/mL
Cn1cccc1-c1n[nH]c(=O)n1CCCCCCn1c(-c2cccn2C)n[nH]c1=O,,MIC,,7.5 µg/mL
CCCCN(Cc1cn(Cc2ccc(Cl)cc2Cl)nn1)CC(O)(Cn1cncn1)c1ccc(F)cc1F,,MIC80,,16 µg/mL
O=C(CCn1ccnc1)c1cccc(C(O)c2ccc(Cl)c(Cl)c2)c1,RTCC 1074,MIC,broth dilution,16 µg/mL
Cc1n[nH]c(=O)n1CCCCCCn1c(C)n[nH]c1=O,,MIC,,7.5 µg/mL
O=C(CCn1ccnc1)c1ccc(Cl)cc1,RTCC 1019,MIC,broth dilution,16 µg/mL
CCCCN(Cc1cn(Cc2cccc(C#N)c2)nn1)CC(O)(Cn1cncn1)c1ccc(F)cc1F,,MIC80,,4 µg/mL